From the supplement of paper PMC3578754
Fold change is the IC50 on the isolate divided by the IC50 on a reference virus; 1 = unchanged, higher = more resistant. Changes are given against the subtype B consensus. No active / inactive call. The values were gathered from many studies (numbered anew) with different assays, which the source does not name. Most viruses are clinical isolates; some are laboratory strains or clones with known resistance changes. Isolates with mixed residues are left out; stretches that were not sequenced show no change. Round top values that many isolates share are read here as limits; other very high values and 0.1 may be limits too.

Experiments:
Experiment in all cases: fold change of IC50 against reference virus; higher = more resistant
stavudine = compound: Cc1cn([C@H]2C=C[C@@H](CO)O2)c(=O)[nH]c1=O [stavudine]
Experimental: (§1)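 Cell-culture drug susceptibility tests of virus bearing the reverse transcriptase of each isolate, gathered from many studies.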

zidovudine = compound: Cc1cn([C@H]2C[C@H](N=[N+]=[N-])[C@@H](CO)O2)c(=O)[nH]c1=O [zidovudine]
Experimental: as §1

zalcitabine = compound: Nc1ccn([C@H]2CC[C@@H](CO)O2)c(=O)n1 [zalcitabine]
Experimental: as §1

didanosine = compound: O=c1[nH]cnc2c1ncn2[C@H]1CC[C@@H](CO)O1 [didanosine]
Experimental: as §1

nevirapine = compound: Cc1ccnc2c1NC(=O)c1cccnc1N2C1CC1 [nevirapine]
Experimental: as §1

## HIV-1 isolate 1335 (reverse transcriptase changes: T69A, study 49)
stavudine
  fold change of IC50 against reference virus: 2
zidovudine
  fold change of IC50 against reference virus: 5
zalcitabine
  fold change of IC50 against reference virus: 1
didanosine
  fold change of IC50 against reference virus: 1

## HIV-1 isolate 1438 (reverse transcriptase changes: K122E D123S R211K V245M I326V I329L R358K T377I K390R T403M R461K L469I, study 103)
nevirapine
  fold change of IC50 against reference virus: 1
zidovudine
  fold change of IC50 against reference virus: 1
zalcitabine
  fold change of IC50 against reference virus: 1
didanosine
  fold change of IC50 against reference virus: 1

## HIV-1 isolate 1218 (reverse transcriptase changes: A62V S68G V75I F77L A98S F116Y I135T Q151M I178M G196E I202V R211G, study 113)
stavudine
  fold change of IC50 against reference virus: 71
zidovudine
  fold change of IC50 against reference virus: 950
zalcitabine
  fold change of IC50 against reference virus: 10
didanosine
  fold change of IC50 against reference virus: 5

## HIV-1 isolate 837 (reverse transcriptase changes: T39A A62V S68G V75I F77L A98S F116Y I135V Q151M R172K Q174H R211G F214L K219E V245M, study 23)
stavudine
  fold change of IC50 against reference virus: 17
zidovudine
  fold change of IC50 against reference virus: 1000
zalcitabine
  fold change of IC50 against reference virus: 9
didanosine
  fold change of IC50 against reference virus: 13

## HIV-1 isolate 666 (reverse transcriptase changes: V75I F77L K102Q Q151M S162C K277R I293V R358K V435I S468P K550G, study 4)
stavudine
  fold change of IC50 against reference virus: 5
zidovudine
  fold change of IC50 against reference virus: 40
zalcitabine
  fold change of IC50 against reference virus: 6
didanosine
  fold change of IC50 against reference virus: 5

## HIV-1 isolate 789 (reverse transcriptase changes: K65R K122E F214L A272P K277R M357T A376T A400T N447S D460N S468T S519N, study 10)
nevirapine
  fold change of IC50 against reference virus: 0.9
zidovudine
  fold change of IC50 against reference virus: 0.3
zalcitabine
  fold change of IC50 against reference virus: 7.7
didanosine
  fold change of IC50 against reference virus: 10

## HIV-1 isolate 1582 (reverse transcriptase changes: V75T K122E M184V F214L A272P K277R A376T A400T D460N S468T H483Y K512Q S519N, study 20)
stavudine
  fold change of IC50 against reference virus: 2.2
zidovudine
  fold change of IC50 against reference virus: 1.2
zalcitabine
  fold change of IC50 against reference virus: 30

## HIV-1 isolate 288 (reverse transcriptase changes: T69G K70R L74I K102Q K103N S162C T215F K219Q K277R, study 98)
nevirapine
  fold change of IC50 against reference virus: 27
zidovudine
  fold change of IC50 against reference virus: 10
zalcitabine
  fold change of IC50 against reference virus: 13
didanosine
  fold change of IC50 against reference virus: 8.2

## HIV-1 isolate 332 (reverse transcriptase changes: T69G, study 49)
stavudine
  fold change of IC50 against reference virus: 1
zidovudine
  fold change of IC50 against reference virus: 1
zalcitabine
  fold change of IC50 against reference virus: 1
didanosine
  fold change of IC50 against reference virus: 1

## HIV-1 isolate 249 (reverse transcriptase changes: D67N K70R K122E F214L T215F K219E A272P K277R, study 69)
stavudine
  fold change of IC50 against reference virus: 3.8
zidovudine
  fold change of IC50 against reference virus: 200
zalcitabine
  fold change of IC50 against reference virus: 1.4
didanosine
  fold change of IC50 against reference virus: 1.3

## HIV-1 isolate 302 (reverse transcriptase changes: K122E Q151M F214L A272P K277R M357T A376T A400T N447S D460N S468T S519N, study 77)
nevirapine
  fold change of IC50 against reference virus: 1
stavudine
  fold change of IC50 against reference virus: 3.1
zidovudine
  fold change of IC50 against reference virus: 10
zalcitabine
  fold change of IC50 against reference virus: 20
didanosine
  fold change of IC50 against reference virus: 5

## HIV-1 isolate 1379 (reverse transcriptase changes: K122E F214L T215Y A272P K277R, study 20)
stavudine
  fold change of IC50 against reference virus: 1.3
zidovudine
  fold change of IC50 against reference virus: 24
zalcitabine
  fold change of IC50 against reference virus: 1.4

## HIV-1 isolate 1141 (reverse transcriptase changes: K122E M184V F214L A272P K277R A376T A400T D460N S468T H483Y K512Q S519N, study 20)
stavudine
  fold change of IC50 against reference virus: 1.1
zidovudine
  fold change of IC50 against reference virus: 1
zalcitabine
  fold change of IC50 against reference virus: 15

## HIV-1 isolate 811 (reverse transcriptase changes: D67N K70R V118I Q207E R211K F214L T215F K219Q, study 69)
stavudine
  fold change of IC50 against reference virus: 1.2
zidovudine
  fold change of IC50 against reference virus: 200
zalcitabine
  fold change of IC50 against reference virus: 3

## HIV-1 isolate 624 (reverse transcriptase changes: T69S, study 49)
stavudine
  fold change of IC50 against reference virus: 2
zidovudine
  fold change of IC50 against reference virus: 2
zalcitabine
  fold change of IC50 against reference virus: 4
didanosine
  fold change of IC50 against reference virus: 3

## HIV-1 isolate 65 (reverse transcriptase changes: K65R K122E F214L A272P K277R M357T A376T A400T N447S D460N S468T S519N, study 81)
stavudine
  fold change of IC50 against reference virus: 3
zidovudine
  fold change of IC50 against reference virus: 3.3
zalcitabine
  fold change of IC50 against reference virus: 3.1
didanosine
  fold change of IC50 against reference virus: 3.1

## HIV-1 isolate 1000 (reverse transcriptase changes: T69S K102Q S162C, study 39)
stavudine
  fold change of IC50 against reference virus: 0.9
zalcitabine
  fold change of IC50 against reference virus: 1
didanosine
  fold change of IC50 against reference virus: 1.2

## HIV-1 isolate 289 (reverse transcriptase changes: T69G K102Q S162C K277R, study 98)
nevirapine
  fold change of IC50 against reference virus: 1
zidovudine
  fold change of IC50 against reference virus: 1.5
zalcitabine
  fold change of IC50 against reference virus: 11
didanosine
  fold change of IC50 against reference virus: 10

## HIV-1 isolate 1032 (reverse transcriptase changes: V60I D67N K70R I178L H208Y R211K T215Y K219Q L228H, study 69)
stavudine
  fold change of IC50 against reference virus: 0.8
zidovudine
  fold change of IC50 against reference virus: 400
zalcitabine
  fold change of IC50 against reference virus: 1

## HIV-1 isolate 103 (reverse transcriptase changes: K102Q Q151M S162C K277R I293V R358K V435I S468P K550G, study 4)
nevirapine
  fold change of IC50 against reference virus: 1
stavudine
  fold change of IC50 against reference virus: 3
zidovudine
  fold change of IC50 against reference virus: 20
zalcitabine
  fold change of IC50 against reference virus: 4
didanosine
  fold change of IC50 against reference virus: 2.9

## HIV-1 isolate 1023 (reverse transcriptase changes: A62V V75I F77L F116Y K122E Q151M F214L A272P K277R M357T A376T A400T N447S D460N S468T S519N, study 77)
nevirapine
  fold change of IC50 against reference virus: 1
stavudine
  fold change of IC50 against reference virus: 69
zidovudine
  fold change of IC50 against reference virus: 320
zalcitabine
  fold change of IC50 against reference virus: 46
didanosine
  fold change of IC50 against reference virus: 43

## HIV-1 isolate 480 (reverse transcriptase changes: T69N, study 49)
stavudine
  fold change of IC50 against reference virus: 3
zidovudine
  fold change of IC50 against reference virus: 7
zalcitabine
  fold change of IC50 against reference virus: 8
didanosine
  fold change of IC50 against reference virus: 5

## HIV-1 isolate 1541 (reverse transcriptase changes: K102Q S162C K277R, study 98)
nevirapine
  fold change of IC50 against reference virus: 1
zidovudine
  fold change of IC50 against reference virus: 1
zalcitabine
  fold change of IC50 against reference virus: 1
didanosine
  fold change of IC50 against reference virus: 1

## HIV-1 isolate 1550 (reverse transcriptase changes: L74V K102Q S162C K277R, study 110)
stavudine
  fold change of IC50 against reference virus: 0.9
zidovudine
  fold change of IC50 against reference virus: 1.1
zalcitabine
  fold change of IC50 against reference virus: 1.2
didanosine
  fold change of IC50 against reference virus: 1.8

## HIV-1 isolate 1584 (reverse transcriptase changes: V75T K102Q S162C K277R, study 110)
stavudine
  fold change of IC50 against reference virus: 1.9
zidovudine
  fold change of IC50 against reference virus: 0.6
zalcitabine
  fold change of IC50 against reference virus: 1.4
didanosine
  fold change of IC50 against reference virus: 1.2

## HIV-1 isolate 657 (reverse transcriptase changes: K122E S156A R172K S251R A272P K277R A376T A400T N447S D460N S468T, study 103)
zidovudine
  fold change of IC50 against reference virus: 0.2
zalcitabine
  fold change of IC50 against reference virus: 1
didanosine
  fold change of IC50 against reference virus: 0.4

## HIV-1 isolate 804 (reverse transcriptase changes: L74V K122E F214L A272P K277R A376T A400T D460N S468T H483Y K512Q S519N, study 20)
stavudine
  fold change of IC50 against reference virus: 1.7
zidovudine
  fold change of IC50 against reference virus: 1
zalcitabine
  fold change of IC50 against reference virus: 18
didanosine
  fold change of IC50 against reference virus: 6

## HIV-1 isolate 1018 (reverse transcriptase changes: K102Q S162C, study 39)
stavudine
  fold change of IC50 against reference virus: 1
zalcitabine
  fold change of IC50 against reference virus: 1
didanosine
  fold change of IC50 against reference virus: 1

## HIV-1 isolate 1143 (reverse transcriptase changes: M41L D67N T69D K102Q S162C L210W T215Y K277R I293V R358K V435I S468P K550G, study 142)
zidovudine
  fold change of IC50 against reference virus: 98
zalcitabine
  fold change of IC50 against reference virus: 1
didanosine
  fold change of IC50 against reference virus: 0.8

## HIV-1 isolate 1419 (reverse transcriptase changes: K65R K122E M184V F214L A272P K277R A376T A400T D460N S468T H483Y K512Q S519N, study 74)
zidovudine
  fold change of IC50 against reference virus: 0.3
zalcitabine
  fold change of IC50 against reference virus: 13
didanosine
  fold change of IC50 against reference virus: 4.9

## HIV-1 isolate 744 (reverse transcriptase changes: T69D, study 49)
stavudine
  fold change of IC50 against reference virus: 1
zidovudine
  fold change of IC50 against reference virus: 1
zalcitabine
  fold change of IC50 against reference virus: 8
didanosine
  fold change of IC50 against reference virus: 3

## HIV-1 isolate 397 (reverse transcriptase changes: K122E F214L A272P K277R A376T A400T K451R V458L D460N R461K S468P D471N H483Y K512Q S519N E529Q V559I, study 74)
zidovudine
  fold change of IC50 against reference virus: 1
zalcitabine
  fold change of IC50 against reference virus: 1
didanosine
  fold change of IC50 against reference virus: 1

## HIV-1 isolate 614 (reverse transcriptase changes: K122E F214L A272P K277R M357T A376T A400T N447S D460N S468T S519N, study 10)
nevirapine
  fold change of IC50 against reference virus: 1
zidovudine
  fold change of IC50 against reference virus: 1
zalcitabine
  fold change of IC50 against reference virus: 1
didanosine
  fold change of IC50 against reference virus: 1

## HIV-1 isolate 1548 (reverse transcriptase changes: A98S I135T Q174L G196E R211G, study 113)
stavudine
  fold change of IC50 against reference virus: 7.1
zidovudine
  fold change of IC50 against reference virus: 1.5
zalcitabine
  fold change of IC50 against reference virus: 1
didanosine
  fold change of IC50 against reference virus: 1

## HIV-1 isolate 1070 (reverse transcriptase changes: V75T K122E F214L T215Y A272P K277R A376T A400T D460N S468T H483Y K512Q S519N, study 20)
stavudine
  fold change of IC50 against reference virus: 3.3
zidovudine
  fold change of IC50 against reference virus: 3.6
zalcitabine
  fold change of IC50 against reference virus: 15

## HIV-1 isolate 1086 (reverse transcriptase changes: K102Q S162C M184V, study 39)
zidovudine
  fold change of IC50 against reference virus: 1
zalcitabine
  fold change of IC50 against reference virus: 2
didanosine
  fold change of IC50 against reference virus: 1

## HIV-1 isolate 557 (reverse transcriptase changes: T69D K102Q S162C K277R I293V R358K V435I S468P K550G, study 142)
zidovudine
  fold change of IC50 against reference virus: 1
zalcitabine
  fold change of IC50 against reference virus: 5.4
didanosine
  fold change of IC50 against reference virus: 1.1
